In test [1] the target is Nicotinic acetylcholine receptor alpha9/alpha10 (Rattus norvegicus) (UniProt P43144+Q9JLB5). Put plainly: Antagonist activity at rat alpha9alpha10 nACh receptor expressed in Xenopus oocyte assessed as inhibition of acetylcholine-induced response at -70 mV holding potential by measuring ratio of IC50 by voltage-clamp based electrophysiological assay relative to GeXIVA. It is filed as cell-based. Particulars: filed as antagonist.

Amino acid sequences for entries named in this document (tags omitted). A change or cut given only in a name is not applied to a line headed by its entry.
UniProt P43144: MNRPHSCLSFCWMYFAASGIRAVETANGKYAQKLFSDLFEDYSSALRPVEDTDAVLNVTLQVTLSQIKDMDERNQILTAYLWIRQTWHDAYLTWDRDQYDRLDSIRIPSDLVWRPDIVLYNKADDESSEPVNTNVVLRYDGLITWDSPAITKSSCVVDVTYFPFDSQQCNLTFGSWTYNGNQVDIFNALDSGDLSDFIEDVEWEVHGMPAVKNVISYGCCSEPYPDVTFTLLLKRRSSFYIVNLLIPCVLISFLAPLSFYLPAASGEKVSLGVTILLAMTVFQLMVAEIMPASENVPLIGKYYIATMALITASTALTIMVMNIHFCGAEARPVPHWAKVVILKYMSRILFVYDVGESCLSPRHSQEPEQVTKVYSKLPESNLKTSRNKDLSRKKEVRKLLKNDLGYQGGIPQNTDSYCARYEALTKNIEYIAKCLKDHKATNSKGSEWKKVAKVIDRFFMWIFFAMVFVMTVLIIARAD
UniProt Q9JLB5: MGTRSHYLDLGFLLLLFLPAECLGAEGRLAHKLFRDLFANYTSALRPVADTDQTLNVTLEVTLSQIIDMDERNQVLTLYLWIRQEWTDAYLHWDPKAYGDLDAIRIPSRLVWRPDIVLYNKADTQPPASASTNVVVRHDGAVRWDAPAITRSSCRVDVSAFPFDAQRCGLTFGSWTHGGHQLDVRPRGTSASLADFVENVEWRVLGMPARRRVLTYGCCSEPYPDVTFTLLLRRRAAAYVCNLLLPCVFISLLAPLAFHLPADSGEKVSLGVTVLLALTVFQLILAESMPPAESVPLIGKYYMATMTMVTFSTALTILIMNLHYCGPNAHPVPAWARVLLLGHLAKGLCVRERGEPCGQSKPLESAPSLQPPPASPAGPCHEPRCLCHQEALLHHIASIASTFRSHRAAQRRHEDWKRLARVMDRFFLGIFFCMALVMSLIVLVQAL
UniProt Q05941, whole entry, looked up: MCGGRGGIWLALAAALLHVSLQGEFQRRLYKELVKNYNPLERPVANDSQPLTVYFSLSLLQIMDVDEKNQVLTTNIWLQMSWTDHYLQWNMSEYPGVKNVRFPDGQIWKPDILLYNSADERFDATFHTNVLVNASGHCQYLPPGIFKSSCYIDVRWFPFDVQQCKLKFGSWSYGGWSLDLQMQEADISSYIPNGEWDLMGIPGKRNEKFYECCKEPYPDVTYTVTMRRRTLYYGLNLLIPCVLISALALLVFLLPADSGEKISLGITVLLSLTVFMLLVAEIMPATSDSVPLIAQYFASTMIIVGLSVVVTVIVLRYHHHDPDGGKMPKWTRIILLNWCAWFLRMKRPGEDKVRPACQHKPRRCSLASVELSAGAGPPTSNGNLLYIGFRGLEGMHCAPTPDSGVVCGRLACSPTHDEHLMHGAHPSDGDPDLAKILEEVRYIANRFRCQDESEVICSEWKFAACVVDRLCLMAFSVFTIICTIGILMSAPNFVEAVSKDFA

The species entered for a further test is Rattus norvegicus. The test can be described thus: Selectivity ratio of IC50 for rat alpha7 nACh receptor to IC50 for rat alpha9alpha10 nACh receptor.
The target in test [2] is Neuronal acetylcholine receptor subunit alpha-7 (Rattus norvegicus) (UniProt Q05941). The test can be described thus: Antagonist activity at rat alpha7 nACh receptor expressed in Xenopus oocyte assessed as inhibition of acetylcholine-induced response at -70 mV holding potential by measuring ratio of IC50 by voltage-clamp based electrophysiological assay relative to GeXIVA. The conditions noted are these: filed as antagonist.

For `CC[C@H](C)[C@@H]1NC(=O)[C@H](C)NC(=O)[C@H](CCCNC(=N)N)NC(=O)[C@@H](NC(=O)[C@H](Cc2ccc(O)cc2)NC(=O)[C@H](CCCNC(=N)N)NC(=O)[C@H](CCCNC(=N)N)NC(=O)[C@H](CCCNC(=N)N)NC(=O)[C@H](CCCNC(=N)N)NC(=O)[C@H](CC(=O)O)NC(=O)[C@H](Cc2ccc(O)cc2)NC(=O)[C@@H]2CCCN2C(=O)[C@H](CO)NC(=O)[C@H](CCCNC(=N)N)NC(=O)[C@@H]2CSSC[C@H](NC(=O)[C@@H](N)[C@@H](C)O)C(=O)N[C@@H](CCCNC(=N)N)C(=O)N[C@@H](CO)C(=O)N[C@@H](CO)C(=O)NCC(=O)N[C@@H](CCCNC(=N)N)C(=O)N[C@@H](Cc3ccc(O)cc3)C(=O)N2)CSSC[C@@H](C(=O)N[C@H](C(=O)O)C(C)C)NC(=O)[C@H](C)NC(=O)[C@H](CC(=O)O)NC(=O)[C@H]([C@@H](C)O)NC1=O`, the figures for the Ratio IC50 (in test [1]; in the test filed under Rattus norvegicus; in test [2]) were 4.5, 70 and 5.8, respectively.

In the case of `CC[C@H](C)[C@@H]1NC(=O)[C@H](CCCNC(=N)N)NC(=O)[C@H](CCCNC(=N)N)NC(=O)[C@@H]2CSSC[C@H](NC(=O)[C@H](Cc3ccc(O)cc3)NC(=O)[C@H](CCCNC(=N)N)NC(=O)CNC(=O)[C@H](CO)NC(=O)[C@H](CO)NC(=O)[C@H](CCCNC(=N)N)NC(=O)[C@@H](NC(=O)[C@@H](N)[C@@H](C)O)CSSC[C@@H](C(=O)N[C@H](C(=O)O)C(C)C)NC(=O)[C@H](C)NC(=O)[C@H](CC(=O)O)NC(=O)[C@H]([C@@H](C)O)NC1=O)C(=O)N[C@@H](CCCNC(=N)N)C(=O)N[C@@H](CO)C(=O)N1CCC[C@H]1C(=O)N[C@@H](Cc1ccc(O)cc1)C(=O)N[C@@H](C)C(=O)N[C@@H](CCCNC(=N)N)C(=O)N[C@@H](CCCNC(=N)N)C(=O)N[C@@H](CCCNC(=N)N)C(=O)N[C@@H](CCCNC(=N)N)C(=O)N[C@@H](Cc1ccc(O)cc1)C(=O)N2`, the Ratio IC50 in test [1] is 0.3; in the test filed under Rattus norvegicus, 1620; in test [2] it was 2.7.

As to `CC[C@H](C)[C@@H]1NC(=O)[C@H](CCCNC(=N)N)NC(=O)[C@H](CCCNC(=N)N)NC(=O)[C@@H]2CSSC[C@H](NC(=O)[C@H](C)NC(=O)[C@H](CCCNC(=N)N)NC(=O)CNC(=O)[C@H](CO)NC(=O)[C@H](CO)NC(=O)[C@H](CCCNC(=N)N)NC(=O)[C@@H](NC(=O)[C@@H](N)[C@@H](C)O)CSSC[C@@H](C(=O)N[C@H](C(=O)O)C(C)C)NC(=O)[C@H](C)NC(=O)[C@H](CC(=O)O)NC(=O)[C@H]([C@@H](C)O)NC1=O)C(=O)N[C@@H](CCCNC(=N)N)C(=O)N[C@@H](CO)C(=O)N1CCC[C@H]1C(=O)N[C@@H](Cc1ccc(O)cc1)C(=O)N[C@@H](CC(=O)O)C(=O)N[C@@H](CCCNC(=N)N)C(=O)N[C@@H](CCCNC(=N)N)C(=O)N[C@@H](CCCNC(=N)N)C(=O)N[C@@H](CCCNC(=N)N)C(=O)N[C@@H](Cc1ccc(O)cc1)C(=O)N2`, the Ratio IC50 was 7.5 in test [1], 61.1 in the test listed under Rattus norvegicus and 2.6 in test [2].

As for `CC[C@H](C)[C@@H]1NC(=O)[C@H](CCCNC(=N)N)NC(=O)[C@H](CCCNC(=N)N)NC(=O)[C@@H]2CSSC[C@H](NC(=O)[C@H](Cc3ccc(O)cc3)NC(=O)[C@H](CCCNC(=N)N)NC(=O)CNC(=O)[C@H](C)NC(=O)[C@H](CO)NC(=O)[C@H](CCCNC(=N)N)NC(=O)[C@@H](NC(=O)[C@@H](N)[C@@H](C)O)CSSC[C@@H](C(=O)N[C@H](C(=O)O)C(C)C)NC(=O)[C@H](C)NC(=O)[C@H](CC(=O)O)NC(=O)[C@H]([C@@H](C)O)NC1=O)C(=O)N[C@@H](CCCNC(=N)N)C(=O)N[C@@H](CO)C(=O)N1CCC[C@H]1C(=O)N[C@@H](Cc1ccc(O)cc1)C(=O)N[C@@H](CC(=O)O)C(=O)N[C@@H](CCCNC(=N)N)C(=O)N[C@@H](CCCNC(=N)N)C(=O)N[C@@H](CCCNC(=N)N)C(=O)N[C@@H](CCCNC(=N)N)C(=O)N[C@@H](Cc1ccc(O)cc1)C(=O)N2`, the Ratio IC50 came to 3.7 in test [1], 106 in the test filed under Rattus norvegicus and 2.2 in test [2].

For the compound `CC[C@H](C)[C@@H]1NC(=O)[C@H](CCCNC(=N)N)NC(=O)[C@H](CCCNC(=N)N)NC(=O)[C@@H]2CSSC[C@H](NC(=O)[C@H](Cc3ccc(O)cc3)NC(=O)[C@H](CCCNC(=N)N)NC(=O)CNC(=O)[C@H](CO)NC(=O)[C@H](CO)NC(=O)[C@H](CCCNC(=N)N)NC(=O)[C@@H](NC(=O)[C@@H](N)[C@@H](C)O)CSSC[C@@H](C(=O)N[C@@H](C)C(=O)O)NC(=O)[C@H](C)NC(=O)[C@H](CC(=O)O)NC(=O)[C@H]([C@@H](C)O)NC1=O)C(=O)N[C@@H](CCCNC(=N)N)C(=O)N[C@@H](CO)C(=O)N1CCC[C@H]1C(=O)N[C@@H](Cc1ccc(O)cc1)C(=O)N[C@@H](CC(=O)O)C(=O)N[C@@H](CCCNC(=N)N)C(=O)N[C@@H](CCCNC(=N)N)C(=O)N[C@@H](CCCNC(=N)N)C(=O)N[C@@H](CCCNC(=N)N)C(=O)N[C@@H](Cc1ccc(O)cc1)C(=O)N2`, the Ratio IC50 in test [1] came out at 3.9; in the test filed under Rattus norvegicus, 25.8; in test [2] it was 0.6.

On to `CC[C@H](C)[C@H]1NC(=O)[C@H](CCCNC(=N)N)NC(=O)[C@H](CCCNC(=N)N)NC(=O)[C@@H](NC(=O)[C@H](Cc2ccc(O)cc2)NC(=O)[C@H](CCCNC(=N)N)NC(=O)[C@H](CCCNC(=N)N)NC(=O)[C@H](CCCNC(=N)N)NC(=O)[C@H](CCCNC(=N)N)NC(=O)[C@H](CC(=O)O)NC(=O)[C@H](Cc2ccc(O)cc2)NC(=O)[C@@H]2CCCN2C(=O)[C@H](CO)NC(=O)[C@H](CCCNC(=N)N)NC(=O)[C@@H]2CSSC[C@H](NC(=O)[C@@H](N)[C@@H](C)O)C(=O)N[C@@H](C)C(=O)N[C@@H](CO)C(=O)N[C@@H](CO)C(=O)NCC(=O)N[C@@H](CCCNC(=N)N)C(=O)N[C@@H](Cc3ccc(O)cc3)C(=O)N2)CSSC[C@@H](C(=O)N[C@H](C(=O)O)C(C)C)NC(=O)[C@H](C)NC(=O)[C@H](CC(=O)O)NC(=O)[C@H]([C@@H](C)O)NC1=O`, for which the Ratio IC50 in test [1] turned out to be 6.2; in the test listed under Rattus norvegicus it was 61.1; in test [2], 7.

In the case of `CC[C@H](C)[C@@H]1NC(=O)[C@H](CCCNC(=N)N)NC(=O)[C@H](CCCNC(=N)N)NC(=O)[C@@H](NC(=O)[C@H](Cc2ccc(O)cc2)NC(=O)[C@H](CCCNC(=N)N)NC(=O)[C@H](CCCNC(=N)N)NC(=O)[C@H](CCCNC(=N)N)NC(=O)[C@H](CCCNC(=N)N)NC(=O)[C@H](CC(=O)O)NC(=O)[C@H](C)NC(=O)[C@@H]2CCCN2C(=O)[C@H](CO)NC(=O)[C@H](CCCNC(=N)N)NC(=O)[C@@H]2CSSC[C@H](NC(=O)[C@@H](N)[C@@H](C)O)C(=O)N[C@@H](CCCNC(=N)N)C(=O)N[C@@H](CO)C(=O)N[C@@H](CO)C(=O)NCC(=O)N[C@@H](CCCNC(=N)N)C(=O)N[C@@H](Cc3ccc(O)cc3)C(=O)N2)CSSC[C@@H](C(=O)N[C@H](C(=O)O)C(C)C)NC(=O)[C@H](C)NC(=O)[C@H](CC(=O)O)NC(=O)[C@H]([C@@H](C)O)NC1=O`, the Ratio IC50 in test [1] is 0.9; in the test listed under Rattus norvegicus, 134; in test [2] it was 2.3.

`CC[C@H](C)[C@@H]1NC(=O)[C@H](CCCNC(=N)N)NC(=O)[C@H](CCCNC(=N)N)NC(=O)[C@@H]2CSSC[C@H](NC(=O)[C@H](Cc3ccc(O)cc3)NC(=O)[C@H](CCCNC(=N)N)NC(=O)[C@H](C)NC(=O)[C@H](CO)NC(=O)[C@H](CO)NC(=O)[C@H](CCCNC(=N)N)NC(=O)[C@@H](NC(=O)[C@@H](N)[C@@H](C)O)CSSC[C@@H](C(=O)N[C@H](C(=O)O)C(C)C)NC(=O)[C@H](C)NC(=O)[C@H](CC(=O)O)NC(=O)[C@H]([C@@H](C)O)NC1=O)C(=O)N[C@@H](CCCNC(=N)N)C(=O)N[C@@H](CO)C(=O)N1CCC[C@H]1C(=O)N[C@@H](Cc1ccc(O)cc1)C(=O)N[C@@H](CC(=O)O)C(=O)N[C@@H](CCCNC(=N)N)C(=O)N[C@@H](CCCNC(=N)N)C(=O)N[C@@H](CCCNC(=N)N)C(=O)N[C@@H](CCCNC(=N)N)C(=O)N[C@@H](Cc1ccc(O)cc1)C(=O)N2`: the values for the Ratio IC50 (in test [1]; in the test filed under Rattus norvegicus; in test [2]) were 1.1, 336 and 2.1, respectively.

Take `CC[C@H](C)[C@@H]1NC(=O)[C@H](CCCNC(=N)N)NC(=O)[C@H](CCCNC(=N)N)NC(=O)[C@@H](NC(=O)[C@H](Cc2ccc(O)cc2)NC(=O)[C@H](CCCNC(=N)N)NC(=O)[C@H](C)NC(=O)[C@H](CCCNC(=N)N)NC(=O)[C@H](CCCNC(=N)N)NC(=O)[C@H](CC(=O)O)NC(=O)[C@H](Cc2ccc(O)cc2)NC(=O)[C@@H]2CCCN2C(=O)[C@H](CO)NC(=O)[C@H](CCCNC(=N)N)NC(=O)[C@@H]2CSSC[C@H](NC(=O)[C@@H](N)[C@@H](C)O)C(=O)N[C@@H](CCCNC(=N)N)C(=O)N[C@@H](CO)C(=O)N[C@@H](CO)C(=O)NCC(=O)N[C@@H](CCCNC(=N)N)C(=O)N[C@@H](Cc3ccc(O)cc3)C(=O)N2)CSSC[C@@H](C(=O)N[C@H](C(=O)O)C(C)C)NC(=O)[C@H](C)NC(=O)[C@H](CC(=O)O)NC(=O)[C@H]([C@@H](C)O)NC1=O`: the figures for the Ratio IC50 (in test [1]; in the test filed under Rattus norvegicus; in test [2]) were 2.2, 208 and 8.6, respectively.

On to `CC[C@H](C)[C@@H]1NC(=O)[C@H](CCCNC(=N)N)NC(=O)[C@H](CCCNC(=N)N)NC(=O)[C@@H](NC(=O)[C@H](Cc2ccc(O)cc2)NC(=O)[C@H](CCCNC(=N)N)NC(=O)[C@H](CCCNC(=N)N)NC(=O)[C@H](CCCNC(=N)N)NC(=O)[C@H](CCCNC(=N)N)NC(=O)[C@H](CC(=O)O)NC(=O)[C@H](Cc2ccc(O)cc2)NC(=O)[C@@H]2CCCN2C(=O)[C@H](CO)NC(=O)[C@H](CCCNC(=N)N)NC(=O)[C@@H]2CSSC[C@H](NC(=O)[C@@H](N)[C@@H](C)O)C(=O)N[C@@H](CCCNC(=N)N)C(=O)N[C@@H](CO)C(=O)N[C@@H](C)C(=O)NCC(=O)N[C@@H](CCCNC(=N)N)C(=O)N[C@@H](Cc3ccc(O)cc3)C(=O)N2)CSSC[C@@H](C(=O)N[C@H](C(=O)O)C(C)C)NC(=O)[C@H](C)NC(=O)[C@H](CC(=O)O)NC(=O)[C@H]([C@@H](C)O)NC1=O`, for which the Ratio IC50 amounted to 2.2 in test [1], 122 in the test listed under Rattus norvegicus and 5 in test [2].

These data come from ChEMBL document CHEMBL5346973 (J Med Chem, 2023).
